Compound potency records, mixed from different reports. Data source: NIAID ChemDB in PubChem.

All rows: whole-cell or culture tests; organism: Aspergillus flavus; measure: inhibition

Conditions beyond the fields shown may differ between rows. Inhibition is in % at the dose shown (toxicity tests: loss of growth or viability). An empty or dashed field is not shown.

structure | strain or isolate | read by | tested at | value
Nc1nc(/N=C/c2ccccn2)n[nH]1 | - | agar diffusion / agar | 200 µg/mL | 45%
O=C(O)CN=Cc1ccccc1O | - | - | 200 µg/mL | 15%
Cc1c(-c2c(C)c(=O)c3c(C(C)C)c(=O)c(=O)c(C=O)c-3c2=O)c(O)c2c(C=O)c(O)c(O)c(C(C)C)c2c1O | ATCC 96044 | - | 100 µg/mL | 71%
CSc1ccc(C2CC(c3ccc(C)cc3)=NN2c2ccccc2)cc1 | NCIM 594 | broth dilution | 2000 µg/mL | 38.63%
Cc1c(-c2c(C)c(=O)c3c(C(C)C)c(=O)c(=O)cc-3c2=O)c(O)c2cc(O)c(O)c(C(C)C)c2c1O | ATCC 96044 | - | 100 µg/mL | 79.6%
O=S(=O)(Nc1nccs1)c1ccc(N=Cc2c[nH]c3ccccc23)cc1 | - | - | 200 µg/mL | 30%
CS(=O)(=O)c1ccc(C2CC(c3ccccc3)=NN2c2ccccc2)cc1 | NCIM 594 | broth dilution | 2000 µg/mL | 65.85%
Nc1nc(/N=C/c2ccc[nH]2)n[nH]1 | - | agar diffusion / agar | 200 µg/mL | 49%
CS(=O)(=O)c1ccc(C2CC(c3ccc(Cl)cc3)=NN2c2ccccc2)cc1 | NCIM 594 | broth dilution | 2000 µg/mL | 88.44%
Nc1nc(/N=C/c2ccccn2)n[nH]1.Nc1nc(/N=C/c2ccccn2)n[nH]1.[O]=[V+2] | - | agar diffusion / agar | 200 µg/mL | 54%
COc1c(O)c(C=O)c2c(O)c(-c3c(C)c(=O)c4c(C(C)C)c(=O)c(=O)c(C=O)c-4c3=O)c(C)c(O)c2c1C(C)C | ATCC 96044 | - | 100 µg/mL | 43.8%
Cc1noc(NS(=O)(=O)c2ccc(N=Cc3c[nH]c4ccccc34)cc2)c1C | - | - | 200 µg/mL | 55%
CSc1ccc(C2CC(c3ccccc3)=NN2c2ccccc2)cc1 | NCIM 594 | broth dilution | 2000 µg/mL | 30.5%
NC(=S)NN=Cc1cccs1 | MTC 00040 | broth dilution | 500 µg/mL | 100%
CSc1ccc(C2CC(c3ccc(Cl)cc3)=NN2c2ccccc2)cc1 | NCIM 594 | broth dilution | 2000 µg/mL | 13.11%
NS(=O)(=O)c1ccc(N=Cc2c[nH]c3ccccc23)cc1 | - | - | 200 µg/mL | 55%